A mixed list of measured activities; the numbers were collected in NIAID ChemDB.

Common to all: growth or infection tests; agent: HIV-1; read by: p24; endpoint: EC50

An empty or dashed field is not shown. Neighbouring rows are from separate reports. ECn is the concentration giving n% inhibition of infection, replication or growth.

smiles	cells	strain	changes	setting	value
COC(=O)N(CC1CCCCC1)C1CCN(CCC(CN(C)S(=O)(=O)c2ccccc2)c2ccccc2)CC1	PBMC	YU2	-	-	<25 µM
CC(C)(C)NC(=O)C1N(C(=O)[C@@H](O)[C@H](Cc2ccccc2)NC(=O)[C@H](CS(C)(=O)=O)NC(=O)COc2cccc3ccccc23)CSC1(C)C	PBMC(PHA) + PBMC	ERS104	-	clinical isolate	0.02 µM
CCN(C(=O)OCc1ccccc1)C1CCN(CC[C@H](CN(C)S(=O)(=O)c2ccccc2)c2cccc(Cl)c2)CC1	PBMC	BaL	-	-	<0.013 µM
CCCN(C(=O)NCc1ccccc1)C1CCN(CCC(CN(C)S(=O)(=O)c2ccccc2)c2ccccc2)CC1	PBMC	YU2	-	-	<3 µM
CCN(C(=O)OCc1ccccc1)C1CCN(CC[C@](C)(CN(C)S(=O)(=O)c2ccccc2)c2ccccc2)CC1	PBMC	YU-2 (M-tropic)	-	-	<0.5 µM
CCCN(C(=O)OCc1ccccc1)C1CCN(CCC(CN(C)S(=O)(=O)c2ccccc2)c2ccccc2)CC1	PBMC	YU2	-	-	<25 µM
CC(C)(C)NC(=O)[C@H]1N(C(=O)[C@@H](O)[C@H](Cc2ccccc2)NC(=O)[C@H](CC(N)=O)NC(=O)COc2cccc3ccccc23)CSC1(C)C	PBMC(PHA) + PBMC	ERS104	-	clinical isolate	0.107 µM
CCCN(C(=O)OCc1ccc([N+](=O)[O-])cc1)C1CCN(CC[C@H](CN(C)S(=O)(=O)c2ccccc2)c2ccccc2)CC1	PBMC	YU2	-	-	<0.1 µM
CC(C)(C)OC(=O)N[C@@H](Cc1ccccc1)[C@H](O)CNC[C@@H](O)[C@H](Cc1ccc(OCC(=O)N2CCOCC2)cc1)NC(=O)OC(C)(C)C	PBMC	006	-	-	0.038 µM
CN(C)C=Nc1ccn([C@H]2C[C@H](F)[C@@H](CO)O2)c(=O)n1	CEM + CEM-SS	RF	-	-	0.8 µg/mL
Cc1cccc(C)c1OCC(=O)N[C@@H](Cc1ccccc1)[C@@H](O)C[C@H](Cc1ccccc1)NC(=O)[C@H](C(C)C)N1CCCNC1=O	PBMC	ERS104pre	-	-	0.03 µM
CC(C)(C)NC(=O)[C@@H]1C[C@@H]2CCCC[C@@H]2CN1C[C@@H](O)[C@H](Cc1ccccc1)NC(=O)[C@H](CC(N)=O)NC(=O)c1ccc2ccccc2n1	MT-4	NL4-3	-	-	<0.025 µM
C=CCN(C(=O)OCc1ccc([N+](=O)[O-])cc1)C1CCN(CC[C@H](CN(C)S(=O)(=O)c2ccccc2)c2ccccc2)CC1	PBMC	YU2	-	-	<0.2 µM
Cc1cn([C@H]2C[C@H](N=[N+]=[N-])[C@@H](CO)O2)c(=O)[nH]c1=O	MT-4	HXB2D	-	-	0.02 µM
Cc1cn([C@H]2C[C@H](N=[N+]=[N-])[C@@H](CO)O2)c(=O)[nH]c1=O	Macrophage	Clinical isolate	-	-	0.005 µM
CC(C)Nc1cccnc1N1CCN(C(=O)c2cc3ccc(F)cc3[nH]2)CC1	PBMC	D34	-	-	0.0055 µM
CCN1c2ncccc2-c2ncc(C)n2-c2ccc(N(C)C)nc21	H9	IIIB	-	7 d	<0.25 µM
CC(C)C(N[C@@H](Cc1ccccc1)[C@@H](O)[C@H](O)[C@H](Cc1ccccc1)NC(C(=O)OCc1ccccc1)C(C)C)C(=O)OCc1ccccc1	PBMC	NL4-3	-	-	0.1 µM
CCN1c2ncccc2-c2nccn2-c2ccc(N3CCCC3)nc21	H9	IIIB	-	7 d	<0.082 µM
Cc1cn([C@H]2C[C@H](N=[N+]=[N-])[C@@H](CO)O2)c(=O)[nH]c1=O	PBMC	006	-	-	0.009 µM
CC(C)CN(C[C@@H](O)[C@H](Cc1ccccc1)NC(=O)O[C@H]1CCOC1)S(=O)(=O)c1ccc(N)cc1	PBL	ERS104pre	-	-	0.028 µM
O=c1[nH]cnc2c1ncn2[C@H]1CC[C@@H](CO)O1	PBMC	7076 CLADE D CLADE D	-	-	3.83 µM
CCN1c2ncccc2-c2ncc(C)n2-c2ccc(=O)[nH]c21	H9	IIIB	-	7 d	<0.11 µM
CN(C(=O)OCc1ccccc1)C1CCN(CCC(CN(C)S(=O)(=O)c2ccccc2)c2ccccc2)CC1	PBMC	YU2	-	-	<25 µM
O=c1cc(Cc2c(F)cccc2F)nc(SC2CCCC2)[nH]1	MT-4	IIIB	-	-	<0.15 µM
O=c1[nH]cnc2c1ncn2[C@H]1CC[C@@H](CO)O1	PBMC	006	-	-	2.2 µM
O=C1N(Cc2ccc(CO)cc2)[C@H](Cc2ccccc2)[C@H](O)[C@@H](O)[C@@H](Cc2ccccc2)N1Cc1ccc(CO)cc1	MT-4	NL4-3	PR-L63P V82T I84V	-	<3 µM
CCc1cc(NCc2nc3c(Cl)ccc(Cl)c3o2)c(=O)[nH]c1C	MT-4	NL4-3	RT-K103N	-	0.8 µM
CCN(C(=O)OCc1ccccc1)C1CCN(CCC(CN(C)S(=O)(=O)c2ccccc2)c2ccccc2)CC1	PBMC	YU-2 (M-tropic)	-	-	<12.5 µM
CCNc1cccnc1N1CCN(C(=O)c2cc3cc(OC)ccc3[nH]2)CC1	PBMC	BaL	-	-	~0.9 µM
C=CCN(C(=O)OCc1ccccc1)C1CCN(CC[C@H](CN(C)S(=O)(=O)c2ccccc2)c2ccccc2)CC1	PBMC	YU2	-	-	<0.8 µM
Cc1c(Cc2c(F)cccc2F)nc(SC2CCCC2)[nH]c1=O	MT-4	IIIB	-	-	<0.075 µM
CCCN(C(=O)OCc1cccc(C(N)=O)c1)C1CCN(CC[C@H](CN(C)S(=O)(=O)c2ccccc2)c2cccc(Cl)c2)CC1	PBMC	YU2	-	-	<3 µM
Cc1cn([C@H]2C[C@H](N=[N+]=[N-])[C@@H](CO)O2)c(=O)[nH]c1=O	Macrophage + Monocytes/macrophages	BaL	-	-	0.06 µM
COc1ccc2cc1Oc1ccc(cc1)C[C@H]1c3c(cc4c(c3Oc3cc5c(cc3OC)CCN(C)[C@@H]5C2)OCO4)CCN1C	U1/HIV-1 (+PMA 10 ng/mL) + U1	-	-	chronic infection	0.016 µg/mL
CCN(C(=O)NC)C1CCN(CCC(CN(C)S(=O)(=O)c2ccccc2)c2ccccc2)CC1	PBMC	YU2	-	-	<0.12 µM

Repeating the final 4 entries:

smiles,cells,strain,changes,setting,value
CCCN(C(=O)OCc1cccc(C(N)=O)c1)C1CCN(CC[C@H](CN(C)S(=O)(=O)c2ccccc2)c2cccc(Cl)c2)CC1,PBMC,YU2,-,-,<3 µM
Cc1cn([C@H]2C[C@H](N=[N+]=[N-])[C@@H](CO)O2)c(=O)[nH]c1=O,Macrophage + Monocytes/macrophages,BaL,-,-,0.06 µM
COc1ccc2cc1Oc1ccc(cc1)C[C@H]1c3c(cc4c(c3Oc3cc5c(cc3OC)CCN(C)[C@@H]5C2)OCO4)CCN1C,U1/HIV-1 (+PMA 10 ng/mL) + U1,-,-,chronic infection,0.016 µg/mL
CCN(C(=O)NC)C1CCN(CCC(CN(C)S(=O)(=O)c2ccccc2)c2ccccc2)CC1,PBMC,YU2,-,-,<0.12 µM